Test system: BVDV I-N-dIns β-D-2′-CH3-riboC-R (β-D-2′-CH3-riboC-resistant BVDV)
Assay: BVDV virus yield reduction assay in de novo-infected MDBK cells
Format: cell-based, bovine viral diarrhea virus
Description: To conduct the virus focus assay, MDBK cells were seeded onto 6-well plates containing 2×10^5 cells per well and grown at 37° C./5% CO2 for at least 5 hours before use. The test samples (culture supernatants combined with cell monolayers) were frozen/thawed twice, serially diluted by 10-fold in medium, and used to inoculate test cells in 6-well plates at 0.2 mL per well. The inoculum was removed after 1 hour of adsorption, and the cells were overlaid with 3 mL of 0.5% agarose in complete growth medium (1× DMEM (Cellgro), supplemented with 8% horse serum, penicillin, streptomycin, L-glutamine, sodium pyruvate, and 25 mM HEPES). After 3 days of incubation at 37° C./5% CO2, the plates were fixed for 1 hour with 3 mL of 7.4% formaldehyde in PBS, and washed with PBS. […] Virus titers were calculated in FFU/mL, using the following equation: TFFU/mL=N×5×D; where T is a virus titer in FFU/mL; N is a number of foci per well; and D is a dilution factor for the corresponding virus sample. […]
To conduct the virus yield reduction assay, MDBK cells were seeded onto 24-well plates (1×10^5 cells per well) and grown at 37° C./5% CO2 overnight. […] The virus titer in the cell culture was quantified by focus assay as described above. […]

“Interferon alpha-2b: Intron-A (interferon alpha-2b) by Schering [reference compound]” was tested, and the “maximum reduction in the viral yield” value (I-N-dIns β-D-2′-CH3-riboC-R variant virus) was ~4 log and the “times more sensitive than the wild type BVDV” value (based on comparison of the EC90 values) was “approximately 40 times”.
